{"source": "PubChem BioAssay AID504761, Drosophila RNAi Screening Center | 2011", "aim": "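Fly genes whose silencing reduces dengue virus type 2 infection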 (primary screen)", "cells": "D.Mel-2 cells from Drosophila", "knock-down reagent": "long dsRNA against Drosophila genes", "treatment": "infection with dengue virus type 2; dose and infection time not stated", "measured": "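Cells stained for dengue envelope protein and imaged; percent of infected cells per well on duplicate plates, ranked by infection, with stained nuclei counted for cell number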", "reading the numbers": "infection score: higher = more virus-infected cells; cell count: higher = more cells in the well", "hit rule": "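Low infection ranks in the two replicates (chance level up to 0.065) followed by a retest with a 1.5-fold or larger significant decrease, p below 0.05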", "calls": "active = confirmed: knock-down lowers infection; inactive = not picked or not confirmed", "note": "In all, the deposit lists about 22,000 reagents; shown is an unselected part of those with a known target gene and a result. Over the whole deposit, 116 (0.52%) are marked active. 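Calls depend on retest data that are not deposited; infection was ranked per plate without normalising between plates; the unit of the infection score is not given.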 Raw values are not corrected between plates. Reagent sequences are not shown. The record does not give: the amount of reagent, the time to read-out."}
{"gene":"CG6839 (GeneID 40067)","DRSC id":"DRSC10723","infection score, replicate 1":4.18,"infection score, replicate 2":7.51,"cell count, replicate 1":6859,"cell count, replicate 2":6414,"activity call":"inactive"}
{"gene":"CG14545 (GeneID 50075)","DRSC id":"DRSC14889","infection score, replicate 1":1.17,"infection score, replicate 2":2.94,"cell count, replicate 1":6056,"cell count, replicate 2":6387,"activity call":"inactive"}
{"gene":"CG14545 (GeneID 50075)","DRSC id":"DRSC27728","infection score, replicate 1":3.81,"infection score, replicate 2":4.26,"cell count, replicate 1":6004,"cell count, replicate 2":7214,"activity call":"inactive"}
{"gene":"Fntb (GeneID 41989)","DRSC id":"DRSC15244","infection score, replicate 1":16.1,"infection score, replicate 2":8.98,"cell count, replicate 1":5850,"cell count, replicate 2":6244,"activity call":"inactive"}
{"gene":"Fntb (GeneID 41989)","DRSC id":"DRSC28158","infection score, replicate 1":19.5,"infection score, replicate 2":23.5,"cell count, replicate 1":5619,"cell count, replicate 2":6783,"activity call":"inactive"}
{"gene":"slgA (GeneID 33117)","DRSC id":"DRSC20586","infection score, replicate 1":2.21,"infection score, replicate 2":1.13,"cell count, replicate 1":6692,"cell count, replicate 2":6924,"activity call":"inactive"}
{"gene":"slgA (GeneID 33117)","DRSC id":"DRSC27543","infection score, replicate 1":14.3,"infection score, replicate 2":10.2,"cell count, replicate 1":5771,"cell count, replicate 2":6972,"activity call":"inactive"}
{"gene":"Srrm1 (GeneID 39483)","DRSC id":"DRSC09835","infection score, replicate 1":0.52,"infection score, replicate 2":1.89,"cell count, replicate 1":6153,"cell count, replicate 2":6624,"activity call":"inactive"}
{"gene":"CG3165 (GeneID 33503)","DRSC id":"DRSC00573","infection score, replicate 1":2.75,"infection score, replicate 2":2.86,"cell count, replicate 1":6178,"cell count, replicate 2":6782,"activity call":"inactive"}
{"gene":"CG11449 (GeneID 40467)","DRSC id":"DRSC11662","infection score, replicate 1":7.67,"infection score, replicate 2":9.43,"cell count, replicate 1":6308,"cell count, replicate 2":6472,"activity call":"inactive"}
{"gene":"CG11449 (GeneID 40467)","DRSC id":"DRSC29180","infection score, replicate 1":14.7,"infection score, replicate 2":20.8,"cell count, replicate 1":5891,"cell count, replicate 2":6287,"activity call":"inactive"}
{"gene":"CG31097 (GeneID 43058)","DRSC id":"DRSC14666","infection score, replicate 2":5.7,"cell count, replicate 1":394,"cell count, replicate 2":6787,"activity call":"inactive"}
{"gene":"CG4582 (GeneID 43086)","DRSC id":"DRSC15605","infection score, replicate 1":1.87,"infection score, replicate 2":5.64,"cell count, replicate 1":1122,"cell count, replicate 2":2092,"activity call":"inactive"}
{"gene":"CG3815 (GeneID 31571)","DRSC id":"DRSC18324","infection score, replicate 1":1.35,"infection score, replicate 2":1.06,"cell count, replicate 1":5462,"cell count, replicate 2":6109,"activity call":"inactive"}
{"gene":"CG3815 (GeneID 31571)","DRSC id":"DRSC25830","infection score, replicate 1":2.78,"infection score, replicate 2":1.94,"cell count, replicate 1":6079,"cell count, replicate 2":6029,"activity call":"inactive"}
{"gene":"CG17806 (GeneID 42142)","DRSC id":"DRSC15276","infection score, replicate 1":9.72,"infection score, replicate 2":18.4,"cell count, replicate 1":6531,"cell count, replicate 2":6159,"activity call":"inactive"}
{"gene":"Catsup (GeneID 48805)","DRSC id":"DRSC03288","infection score, replicate 1":0.62,"infection score, replicate 2":2.92,"cell count, replicate 1":649,"cell count, replicate 2":6507,"activity call":"inactive"}
{"gene":"Catsup (GeneID 48805)","DRSC id":"DRSC25727","infection score, replicate 1":1.11,"infection score, replicate 2":5.42,"cell count, replicate 1":6824,"cell count, replicate 2":6235,"activity call":"inactive"}
{"gene":"TwdlZ (GeneID 318092)","DRSC id":"DRSC19154","infection score, replicate 1":1.82,"infection score, replicate 2":2.29,"cell count, replicate 1":6718,"cell count, replicate 2":6799,"activity call":"inactive"}
{"gene":"CG42449 (GeneID 31486)","DRSC id":"DRSC18084","infection score, replicate 1":9.38,"infection score, replicate 2":20.6,"cell count, replicate 1":6406,"cell count, replicate 2":6437,"activity call":"inactive"}
{"gene":"CG42449 (GeneID 31486)","DRSC id":"DRSC25316","infection score, replicate 1":25.2,"infection score, replicate 2":26.9,"cell count, replicate 1":5727,"cell count, replicate 2":6122,"activity call":"inactive"}

In a second layout: 3 of the entries above.
{"gene": "CG11449 (GeneID 40467)", "DRSC id": "DRSC11662", "infection score, replicate 1": 7.67, "infection score, replicate 2": 9.43, "cell count, replicate 1": 6308, "cell count, replicate 2": 6472, "activity call": "inactive"}
{"gene": "CG11449 (GeneID 40467)", "DRSC id": "DRSC29180", "infection score, replicate 1": 14.7, "infection score, replicate 2": 20.8, "cell count, replicate 1": 5891, "cell count, replicate 2": 6287, "activity call": "inactive"}
{"gene": "CG31097 (GeneID 43058)", "DRSC id": "DRSC14666", "infection score, replicate 2": 5.7, "cell count, replicate 1": 394, "cell count, replicate 2": 6787, "activity call": "inactive"}
